Assay results taken from US20240109955A1 (published 2024).

B1: MX828 (bispecific antibody)
chain: QTVVTQEPSFSVSPGGTVTLTCGLSSGSVSTAYFPSWYQQTPGQAPRTLIYGTNTRSSGVPDRFSGSILGNKAALTITGAQADDESDYYCVLYMGRGIVVFGGGTKLTVLGGSSGEIVLTQSPGTLSLSPGERATLSCRASQSVSSSYLAWYQQKPGQAPRLLIYSASSRATGIPDRFSGSGSGTDFTLTISRLEPEDFAVYFCQQYVGLTGWTFGQGTKVEIKGGGGSGGSGSGGGGSASGSGQMQLVQSGPEVKKPGTSVKVSCKASGFTFTSSAVQWVRQRQRLEWIGWIVVGSGNTNYAQKFQERVTITRDMSTSTAYMELSSLRSEDTAVYYCAAPNCSNVVCYDGFDIWGQGTMVTVSSGGSSGQVQLVESGGGVVQPGRSLRLSCAASGFTLSSYGMHWVRQAPGKGLEWVAVISYDGSNKYYVDSVKGRFTISRDNSKNTLYLQMNSLRAEDTAVYYCRWAYWELLPDYYYGMDVWGQGTTVTVSSASGGSGDKTHTCPPCPAPELLGGPSVFLFPPKPKDTLMISRTPEVTCVVVDVSHEDPEVKFNWYVDGVEVHNAKTKPREEQYNSYVVSVLTVLHQDWLNGKEYKCKVSNKALPAPIEKTISKAKGQPREPQVYTLPPSRDELTKNQVSLTCLVKGFYPSDIAVEWESNGQPENNYKTTPPVLDSDGSFFKKLTVDKSRWQQGNVFSCSVLHEALHSHYTQKSLSLSPG
B2: MX828 + MX829 (other)
chain 1: B1 chain
chain 2: DIQMTQSPSSVSASVGDRVIITCRASQGISSWLAWYQQKPGKAPKVLIYDASSLQSGVPSRFSGSGYGTDFTLTISSLQPEDSATYYCQQAKSFPITFGQGTRLEIKGGSSGEIVLTQSPGTLSLSPGERATLSCRASQSVSSSYLAWYQQKPGQAPRLLIYSASSRATGIPDRFSGSGSGTDFTLTISRLEPEDFAVYFCQQYVGLTGWTFGQGTKVEIKGGGGSGGSGSGGGGSASGSGQMQLVQSGPEVKKPGTSVKVSCKASGFTFTSSAVQWVRQRQRLEWIGWIVVGSGNTNYAQKFQERVTITRDMSTSTAYMELSSLRSEDTAVYYCAAPNCSNVVCYDGFDIWGQGTMVTVSSGGSSGQVQLVESGGGVVQPGRSLRLSCAASGFTFSSYAFHWVRQAPGKGLEWVAVISYDGSNQYYADSVKGRFTISRDNSKNTLYLQMNSLRADDTAVYYCARDLAIAVAGTWHYYNGMDVWGQGTTVTVSSASGGSGDKTHTCPPCPAPELLGGPSVFLFPPKPKDTLMISRTPEVTCVVVDVSHEDPEVKFNWYVDGVEVHNAKTKPREEQYNSYVVSVLTVLHQDWLNGKEYKCKVSNKALPAPIEKTISKAKGQPREPQVYTLPPSRDELTKNQVSLTCLVKGFYPSDIAVEWESNGQPENNYKTTPPVLDSDGSFFKKLTVDKSRWQQGNVFSCSVLHEALHSHYTQKSLSLSPG
B3: MX830 (bispecific antibody)
chain: B1 chain with V208G
B4: MX830 + MX831 (other)
chain 1: B1 chain with V208G
chain 2: B2 chain 2 with V205G
B5: MX829 (bispecific antibody)
chain: B2 chain 2
B6: MX831 (bispecific antibody)
chain: B2 chain 2 with V205G
B7: MX1019 (antibody)
chain: EIVMTQSPAILSVSPGERATLSCRASQSVAINLAWYQQKPGQAPRLLIYAASSRATGIPGRFSGSGSETNFTLTISSLQSGDFAVYYCQQYITWPPSYTFGQGTKLEIKGGGGSGGSGSGGGGSASGSGEVQLVESGGALIQPGGSLRLSCAASGIIVSANYMSWVRQAPGKGLEWVSVIYSGGSTFYADSVKGRFTISRDNSKNTLYLEMNSLRAEDTAVYYCARDAPILGVSDWGQGTLVTVSSASGGSGDKTHTCPPCPAPELLGGPSVFLFPPKPKDTLMISRTPEVTCVVVDVSHEDPEVKFNWYVDGVEVHNAKTKPREEQYNSYVVSVLTVLHQDWLNGKEYKCKVSNKALPAPIEKTISKAKGQPREPQVYTLPPSRDELTKNQVSLTCLVKGFYPSDIAVEWESNGQPENNYKTTPPVLDSDGSFFKKLTVDKSRWQQGNVFSCSVLHEALHSHYTQKSLSLSPG
B8: MX1025 (antibody)
chain: EIVLTQSPGTLSLSPGETATLSCRASQSFSSDLAWYQQKPGQAPRLLIYGASSRATGIPDRFSGSGSGTDFTLTISRLEPADFAVYYCQQYGSSPPVTFGGGTKVEIKGGGGSGGSGSGGGGSASGSGEVQLVESGGGLIQPGGSLRLSCAASGVIVSYNYMNWVRQAPGKGLEWVSVIYSGGSTFYADSVRGRFTISRDNSKNTLYLQMNSLRAEDTAVYYCARDLGPAGAFDIWGLGTMVTVSSASGGSGDKTHTCPPCPAPELLGGPSVFLFPPKPKDTLMISRTPEVTCVVVDVSHEDPEVKFNWYVDGVEVHNAKTKPREEQYNSYVVSVLTVLHQDWLNGKEYKCKVSNKALPAPIEKTISKAKGQPREPQVYTLPPSRDELTKNQVSLTCLVKGFYPSDIAVEWESNGQPENNYKTTPPVLDSDGSFFKKLTVDKSRWQQGNVFSCSVLHEALHSHYTQKSLSLSPG
B9: E8 (antibody, V domains shown)
VH: QVTLRESGPALVKPTQTLTLTCTFSGFSLSTRGVCVSWIRQPPGKALEWLAFIDWDDDKYYNTSLKTRLTISKDTSKNQVVLTMTNVHPVDTATYYCARISSHHGSSWCTTFDYWGQGALVTVSA
VL: DTVMTQSPLSLPVTPGEPASISCRSSQSLLNSNGYNYLDWYVQKPGQSPQLLIYLGSNRASGVPDRFSGSGSGTDFTLKISRVEAEDVGVYYCMQPLQTPLFTFGPGTKVEIK

These binders were tested against SARS-CoV-2 spike (S) protein, Omicron sublineage BA.2.75.2 (R346T, F486S) (SARS-CoV-2, UniProt P0DTC2) (assay: cell-based or functional assay).
In the case of B1, the “IC50, pseudovirus neutralization” value is reported as 2.46 µM and the “IC80, pseudovirus neutralization” value is reported as 7.94 µM. With B2 the “IC50, pseudovirus neutralization” value was 8.52 µM and the “IC80, pseudovirus neutralization” value was > 10 µM. B3 was tested, and the “IC50, pseudovirus neutralization” value was 7.05 µM and the “IC80, pseudovirus neutralization” value was > 10 µM. With B4 the “IC50, pseudovirus neutralization” value was 3.71 µM and the “IC80, pseudovirus neutralization” value was 9.72 µM. For B5, the “IC50, pseudovirus neutralization” value was > 10 µM and the “IC80, pseudovirus neutralization” value was > 10 µM. In the case of B6, the “IC50, pseudovirus neutralization” value is reported as > 10 µM and the “IC80, pseudovirus neutralization” value is reported as > 10 µM.

What follows are binders tested against SARS-CoV-2 Omicron BQ.1 spike protein (SARS-CoV-2, UniProt P0DTC2 14-1273) (assay: cell-based or functional assay).
For B7, the “IC50, pseudovirus neutralization” value was 0.0241 µg/mL and the “IC80, pseudovirus neutralization” value was 0.0611 µg/mL. For B8, the “IC50, pseudovirus neutralization” value was 0.0298 µg/mL and the “IC80, pseudovirus neutralization” value was 0.043 µg/mL.

The binders below were run against SARS-CoV-2 spike protein, original Wuhan strain (WA1) (SARS-CoV-2, UniProt P0DTC2 14-1273) (assay: cell-based or functional assay).
With B9 the “IC50, pseudovirus neutralization” value was 0.00877 µg/mL and the “IC80, pseudovirus neutralization” value was 0.0207 µg/mL.

Changes are numbered by the printed parent chain.
